Measured values taken from ChEMBL document CHEMBL6134861 (J Med Chem, 2025).

The chains behind the UniProt entries cited, without tags or fusion partners. Residues count along the entry.
UniProt Q05941, 23-502 limits assumed: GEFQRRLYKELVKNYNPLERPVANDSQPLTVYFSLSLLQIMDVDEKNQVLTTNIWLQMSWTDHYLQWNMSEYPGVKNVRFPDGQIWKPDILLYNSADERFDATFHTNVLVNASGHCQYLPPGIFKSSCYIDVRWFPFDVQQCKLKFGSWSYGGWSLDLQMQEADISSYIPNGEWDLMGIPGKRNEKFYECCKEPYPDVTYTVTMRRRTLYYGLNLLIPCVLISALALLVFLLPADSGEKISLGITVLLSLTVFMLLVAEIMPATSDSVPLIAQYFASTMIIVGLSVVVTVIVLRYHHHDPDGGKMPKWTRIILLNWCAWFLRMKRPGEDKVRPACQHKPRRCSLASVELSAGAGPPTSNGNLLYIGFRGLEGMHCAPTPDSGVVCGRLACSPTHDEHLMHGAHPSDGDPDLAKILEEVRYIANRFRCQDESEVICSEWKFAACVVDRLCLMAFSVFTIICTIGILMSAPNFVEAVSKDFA
UniProt P04757, 26-499 limits assumed: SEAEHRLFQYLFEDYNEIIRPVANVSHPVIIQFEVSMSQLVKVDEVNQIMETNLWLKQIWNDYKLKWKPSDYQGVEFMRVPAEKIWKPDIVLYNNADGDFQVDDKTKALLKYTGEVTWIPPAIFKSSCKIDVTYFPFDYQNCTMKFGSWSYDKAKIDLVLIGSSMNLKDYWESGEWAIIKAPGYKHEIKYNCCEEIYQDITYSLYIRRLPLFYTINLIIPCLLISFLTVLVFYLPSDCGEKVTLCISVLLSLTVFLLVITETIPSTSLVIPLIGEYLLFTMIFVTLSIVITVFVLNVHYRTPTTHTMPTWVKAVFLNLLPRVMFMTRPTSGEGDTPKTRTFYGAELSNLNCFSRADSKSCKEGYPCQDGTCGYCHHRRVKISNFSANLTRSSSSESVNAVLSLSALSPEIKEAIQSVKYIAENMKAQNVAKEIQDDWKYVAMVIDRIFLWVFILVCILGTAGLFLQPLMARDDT
UniProt P12390, 25-500 limits assumed: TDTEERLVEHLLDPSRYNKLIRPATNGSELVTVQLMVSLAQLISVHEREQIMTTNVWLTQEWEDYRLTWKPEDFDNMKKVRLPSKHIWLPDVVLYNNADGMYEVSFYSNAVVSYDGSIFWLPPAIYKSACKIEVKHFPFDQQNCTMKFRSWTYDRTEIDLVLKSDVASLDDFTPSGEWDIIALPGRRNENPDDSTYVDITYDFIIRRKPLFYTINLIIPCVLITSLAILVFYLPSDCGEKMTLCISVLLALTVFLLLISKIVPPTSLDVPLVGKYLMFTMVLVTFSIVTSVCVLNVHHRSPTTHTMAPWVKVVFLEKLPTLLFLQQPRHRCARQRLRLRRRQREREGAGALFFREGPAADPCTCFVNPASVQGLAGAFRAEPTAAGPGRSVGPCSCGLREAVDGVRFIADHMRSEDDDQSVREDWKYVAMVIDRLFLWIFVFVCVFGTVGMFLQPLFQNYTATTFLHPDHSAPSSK
UniProt P12392, 21-495 limits assumed: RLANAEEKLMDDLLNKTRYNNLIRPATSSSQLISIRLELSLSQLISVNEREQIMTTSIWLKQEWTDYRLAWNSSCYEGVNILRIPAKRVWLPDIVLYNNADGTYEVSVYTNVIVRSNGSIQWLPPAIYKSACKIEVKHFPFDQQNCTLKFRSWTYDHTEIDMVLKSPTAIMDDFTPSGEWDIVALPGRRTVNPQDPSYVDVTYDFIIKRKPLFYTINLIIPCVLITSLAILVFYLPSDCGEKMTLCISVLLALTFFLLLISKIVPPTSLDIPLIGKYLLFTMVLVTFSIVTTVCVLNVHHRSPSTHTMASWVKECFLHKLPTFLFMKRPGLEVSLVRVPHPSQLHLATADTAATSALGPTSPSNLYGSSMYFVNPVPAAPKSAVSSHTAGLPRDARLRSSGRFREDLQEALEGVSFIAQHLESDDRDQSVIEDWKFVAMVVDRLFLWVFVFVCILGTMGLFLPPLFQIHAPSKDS
UniProt P43143, 31-493 limits assumed: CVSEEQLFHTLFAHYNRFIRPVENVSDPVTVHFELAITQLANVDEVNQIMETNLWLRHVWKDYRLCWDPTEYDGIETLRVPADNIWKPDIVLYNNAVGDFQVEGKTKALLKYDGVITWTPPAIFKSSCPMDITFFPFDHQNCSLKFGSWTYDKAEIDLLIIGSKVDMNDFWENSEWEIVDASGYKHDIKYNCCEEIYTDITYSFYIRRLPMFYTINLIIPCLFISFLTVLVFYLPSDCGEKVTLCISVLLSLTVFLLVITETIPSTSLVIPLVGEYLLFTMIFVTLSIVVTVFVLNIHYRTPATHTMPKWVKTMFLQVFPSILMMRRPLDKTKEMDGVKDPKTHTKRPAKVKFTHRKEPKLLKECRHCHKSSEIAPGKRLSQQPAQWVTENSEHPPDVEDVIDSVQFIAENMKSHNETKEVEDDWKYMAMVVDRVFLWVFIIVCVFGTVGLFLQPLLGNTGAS
UniProt P12389, 28-511 limits assumed: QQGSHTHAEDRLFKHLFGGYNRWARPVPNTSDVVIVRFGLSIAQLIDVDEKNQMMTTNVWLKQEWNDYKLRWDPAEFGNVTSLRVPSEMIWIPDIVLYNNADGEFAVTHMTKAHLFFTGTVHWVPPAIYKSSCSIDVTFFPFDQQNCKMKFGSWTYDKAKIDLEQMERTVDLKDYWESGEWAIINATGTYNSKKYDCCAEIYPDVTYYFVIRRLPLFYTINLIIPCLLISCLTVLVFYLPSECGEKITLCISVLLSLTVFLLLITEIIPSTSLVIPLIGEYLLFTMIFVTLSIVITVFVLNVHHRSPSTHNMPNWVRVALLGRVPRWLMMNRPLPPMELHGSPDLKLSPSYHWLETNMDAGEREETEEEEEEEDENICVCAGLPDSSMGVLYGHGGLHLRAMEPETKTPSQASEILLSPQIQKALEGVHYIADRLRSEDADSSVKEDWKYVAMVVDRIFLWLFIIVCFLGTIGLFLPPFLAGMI
UniProt P09483, 31-630 limits assumed: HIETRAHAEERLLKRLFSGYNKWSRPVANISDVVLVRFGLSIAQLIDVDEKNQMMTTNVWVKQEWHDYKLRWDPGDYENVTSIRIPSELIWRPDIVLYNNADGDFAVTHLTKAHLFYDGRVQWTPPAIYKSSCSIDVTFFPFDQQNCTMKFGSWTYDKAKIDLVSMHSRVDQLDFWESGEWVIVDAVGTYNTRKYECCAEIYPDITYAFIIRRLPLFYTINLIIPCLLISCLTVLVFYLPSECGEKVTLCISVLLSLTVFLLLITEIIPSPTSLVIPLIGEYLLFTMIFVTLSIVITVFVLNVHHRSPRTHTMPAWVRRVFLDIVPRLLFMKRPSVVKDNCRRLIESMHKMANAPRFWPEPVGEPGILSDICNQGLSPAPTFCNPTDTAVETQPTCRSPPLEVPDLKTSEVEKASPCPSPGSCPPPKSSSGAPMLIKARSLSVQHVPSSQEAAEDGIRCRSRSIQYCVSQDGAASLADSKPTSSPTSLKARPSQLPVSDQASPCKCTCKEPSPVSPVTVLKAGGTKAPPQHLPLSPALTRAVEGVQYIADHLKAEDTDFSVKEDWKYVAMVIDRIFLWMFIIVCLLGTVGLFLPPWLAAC
UniProt P43144, 26-479 limits assumed: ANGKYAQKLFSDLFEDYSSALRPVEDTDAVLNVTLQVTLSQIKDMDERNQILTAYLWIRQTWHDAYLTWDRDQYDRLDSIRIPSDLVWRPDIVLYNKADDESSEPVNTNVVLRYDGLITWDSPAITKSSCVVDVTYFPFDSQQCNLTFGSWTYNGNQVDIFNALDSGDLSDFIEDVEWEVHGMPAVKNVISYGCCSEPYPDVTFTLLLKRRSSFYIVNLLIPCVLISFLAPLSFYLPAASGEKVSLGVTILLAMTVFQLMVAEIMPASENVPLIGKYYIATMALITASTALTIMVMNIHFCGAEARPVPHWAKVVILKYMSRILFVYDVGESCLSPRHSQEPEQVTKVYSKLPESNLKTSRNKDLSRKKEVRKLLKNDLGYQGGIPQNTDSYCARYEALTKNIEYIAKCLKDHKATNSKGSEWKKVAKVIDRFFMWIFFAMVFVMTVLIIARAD
UniProt Q9JLB5, 25-447 limits assumed: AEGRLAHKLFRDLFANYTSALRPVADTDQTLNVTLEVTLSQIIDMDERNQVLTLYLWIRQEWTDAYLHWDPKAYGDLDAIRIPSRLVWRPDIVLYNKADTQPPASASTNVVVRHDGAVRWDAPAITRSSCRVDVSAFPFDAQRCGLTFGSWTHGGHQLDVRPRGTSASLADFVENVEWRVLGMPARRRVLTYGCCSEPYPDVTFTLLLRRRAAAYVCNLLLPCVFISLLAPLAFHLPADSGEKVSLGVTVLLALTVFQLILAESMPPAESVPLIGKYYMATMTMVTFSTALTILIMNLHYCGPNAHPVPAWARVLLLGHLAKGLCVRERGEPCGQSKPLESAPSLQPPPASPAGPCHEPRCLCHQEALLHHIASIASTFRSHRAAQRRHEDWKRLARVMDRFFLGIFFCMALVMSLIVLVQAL

How the values were obtained:
Conditions in all cases: oocyte
[1] = target: Neuronal acetylcholine receptor subunit alpha-7 (Rattus norvegicus, UniProt Q05941); experiment: Inhibition of rat alpha7 nAChR expressed in Xenopus laevis oocytes assessed as inhibition of acetylcholine-induced current by two electrode voltage-clamp assay
[2] = target: Neuronal acetylcholine receptor; alpha3/beta2 (Rattus norvegicus, UniProt P04757+P12390); experiment: Inhibition of rat alpha3/beta2 nAChR expressed in Xenopus laevis oocytes assessed as inhibition of acetylcholine-induced current by two electrode voltage-clamp assay
[3] = target: Neuronal acetylcholine receptor; alpha3/beta4 (Rattus norvegicus, UniProt P04757+P12392); experiment: Inhibition of rat alpha3/beta4 nAChR expressed in Xenopus laevis oocytes assessed as inhibition of acetylcholine-induced current by two electrode voltage-clamp assay
[4] = target: Nicotinic acetylcholine receptor alpha6/alpha3/beta4 (Rattus norvegicus, UniProt P04757+P12392+P43143); experiment: Inhibition of rat alpha6/alpha3/beta4 nAChR expressed in Xenopus laevis oocytes assessed as inhibition of acetylcholine-induced current by two electrode voltage-clamp assay
[5] = target: Neuronal acetylcholine receptor; alpha2/beta2 (Rattus norvegicus, UniProt P12389+P12390); experiment: Inhibition of rat alpha2/beta2 nAChR expressed in Xenopus laevis oocytes assessed as inhibition of acetylcholine-induced current by two electrode voltage-clamp assay
[6] = target: T1, Neuronal acetylcholine receptor; alpha4/beta2 (Rattus norvegicus, UniProt P09483+P12390); experiment: Inhibition of rat alpha4/beta2 nAChR expressed in Xenopus laevis oocytes assessed as inhibition of acetylcholine-induced current by two electrode voltage-clamp assay
[7] = target: T1, Neuronal acetylcholine receptor; alpha4/beta2; experiment: Inhibition of rat alpha4/beta4 nAChR expressed in Xenopus laevis oocytes assessed as inhibition of acetylcholine-induced current by two electrode voltage-clamp assay
[8] = target: Nicotinic acetylcholine receptor alpha9/alpha10 (Rattus norvegicus, UniProt P43144+Q9JLB5); experiment: Inhibition of rat alpha9/alpha10 nAChR expressed in Xenopus laevis oocytes assessed as inhibition of acetylcholine-induced current by two electrode voltage-clamp assay

Question: Which IC50 [1] does the source give for `CC[C@H](C)[C@@H]1NC(=O)[C@H](CC(=O)O)NC(=O)[C@@H]2CCCN2C(=O)[C@H](CC(N)=O)NC(=O)[C@H](CCC(N)=O)NC(=O)[C@H](CC(C)C)NC(=O)[C@H]([C@@H](C)CC)NC(=O)[C@@H]2CSSC[C@H](NC(=O)C(N)CC(=O)O)C(=O)N[C@@H](CSSC[C@@H](C(N)=O)NC1=O)C(=O)N[C@@H](CO)C(=O)N[C@@H](C)C(=O)N1CCC[C@H]1C(=O)N1CCC[C@H]1C(=O)N2` (stereo partly drawn) here?
Answer: 0.0353 µM

Question: What about the IC50 [2] of the same molecule?
Answer: 1.82 µM

Question: What about the IC50 [3] of the same molecule?
Answer: 3.83 µM

Question: And the IC50 [4]?
Answer: 2.08 µM

Question: And the IC50 [5]?
Answer: > 10 µM

Question: And the IC50 [6]?
Answer: > 10 µM

Question: And the IC50 [7]?
Answer: > 10 µM

Question: And the IC50 [8]?
Answer: > 10 µM
